Test results: patent US20250101490A1, “METHOD FOR SCREENING ACETYLCHOLINESTERASE INHIBITOR” (published 2025)

Chains of the proteins cited; added tags and fusions are not shown. Residues count along the entry.
UniProt P22303, 32-614 limits assumed: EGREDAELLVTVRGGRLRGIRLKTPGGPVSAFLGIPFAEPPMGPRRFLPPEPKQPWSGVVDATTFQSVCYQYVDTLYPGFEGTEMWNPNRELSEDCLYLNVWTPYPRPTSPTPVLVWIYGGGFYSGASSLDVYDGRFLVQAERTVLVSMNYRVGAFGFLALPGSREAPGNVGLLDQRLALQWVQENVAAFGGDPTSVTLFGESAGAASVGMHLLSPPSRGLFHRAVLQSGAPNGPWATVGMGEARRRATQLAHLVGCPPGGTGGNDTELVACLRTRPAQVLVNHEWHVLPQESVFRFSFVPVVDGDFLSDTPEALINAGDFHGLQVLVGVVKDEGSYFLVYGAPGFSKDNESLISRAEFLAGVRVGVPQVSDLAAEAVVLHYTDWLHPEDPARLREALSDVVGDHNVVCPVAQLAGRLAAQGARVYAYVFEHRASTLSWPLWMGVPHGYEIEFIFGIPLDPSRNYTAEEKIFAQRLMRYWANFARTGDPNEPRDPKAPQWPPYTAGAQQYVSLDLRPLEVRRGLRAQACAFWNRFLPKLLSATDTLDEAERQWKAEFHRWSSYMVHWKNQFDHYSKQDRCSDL

Molecular target: recombinant human acetylcholinesterase (rhAChE) (Homo sapiens, UniProt P22303)
Conditions: FIG. 7

**Q.** With `CCOP(=O)(OCC)Oc1ccc([N+](=O)[O-])cc1` as the compound, how does the “inhibition of AChE activity (EGFP-NFATc1 nuclear translocation)” value read?
**A.** Its value is “inhibit the activity of AChE in a concentration-dependent manner”.
